Pooled drug test results. Numbers come from NIAID ChemDB, via PubChem.

Shared fields: growth or infection tests; agent: Mycobacterium tuberculosis

Percent inhibition refers to the dose given; in toxicity tests it is the harm to the cells. ECn: concentration that inhibits the pathogen or its effect by n%. MIC50, MIC90 and the like: level of inhibition, or share of isolates inhibited. MIC bound comes from a single tested concentration. Neighbouring rows are from separate reports. Blank or dashed fields: not listed here.

SMILES	strain	mutations	cell line	read by	setting	read-out	tested at	value
O=C1NC(Nc2cccc(Cl)c2)=N/C1=C\c1ccc(Cl)cc1Cl	H37Rv					inhibition	12.5 µg/mL	48%
Cc1cc(C)cc(NC(=O)c2cccc3nc4ccccc4nc23)c1	H37Rv 27294					MIC		0.39 µg/mL
CC(=O)c1ccc(-c2cn(Cc3cccc(Cl)c3)nn2)s1	Wild type without biotin			turbidity		MIC50		>50 µM
CO[C@H]1/C=C/O[C@@]2(C)Oc3c(C)c(O)c4c(O)c(c(/C=N/N5CCN(C)CC5)c(O)c4c3C2=O)NC(=O)/C(C)=C\C=C\[C@H](C)[C@H](O)[C@@H](C)[C@@H](O)[C@@H](C)[C@H](OC(C)=O)[C@@H]1C	6 strains (rifampicin-resistant)					MIC50		100 µg/mL
CCc1cc(C(N)=S)ccn1	H37Rv					Mean MIC		0.94 µg/mL
CCC(C)C(NC(=O)OCc1ccccc1)C(=O)NC(CO)C(=O)O	H37Rv			BACTEC		MIC		≥12.8 µg/mL
O=C(O)c1cn(C2CC2)c2cc(N3CCC(n4c(=O)[nH]c5cc(Cl)ccc54)CC3)c([N+](=O)[O-])cc2c1=O	ATCC35801					MIC		3.14 µM
O=C1CCc2cc(N3CCN(C(=O)c4ccc5c(c4)OCO5)CC3)ccc21	BioA underexpression strain			turbidity		MIC90		0.8 µM
Cc1nc2c(=O)n(C)c(=O)nc-2n(-c2ccc(Cl)cc2)c1C	H37Rv			BACTEC		inhibition	12.5 µg/mL	0%
CN1CCN(c2cc3c(cc2F)c(=O)c(C(=O)O)cn3C(C)(C)C)CC1c1ccccc1	ATCC35801					MIC		1.78 µM
CCOc1cc2oc3cc(OCC)c(C(C)=O)c(CCC(C)C)c3c(=O)c2c(O)c1CCC(C)C	H37Ra			resazurin		MIC		>200 µg/mL
CC(C)(C)n1cc(C(=O)O)c(=O)c2cc([N+](=O)[O-])c(N3CCn4cc(C(=O)O)nc4C3)cc21	ATCC35801					MIC		0.44 µM
Cc1ccccc1NC(=O)c1cccc2nc3ccccc3nc12	H37Rv 27294					MIC		0.39 µg/mL
CC(=O)N(C)SCC(NC(=O)[C@@H](Cc1ccccc1)NC(=O)OCc1ccccc1)C(=O)NC(Cc1ccccc1)C(=O)N[C@H](Cc1cn(C=O)c2ccccc12)C(=O)NC(CCCCNC(=O)OCc1ccccc1)C(=O)NC(C(=O)NC(CSN(C)C(C)=O)/C(O)=N/O)C(C)OCc1ccccc1				BACTEC		MIC bound		>6.25 µg/mL
CC[C@H]1OC(=O)[C@H](C)[C@@H](O[C@H]2C[C@@](C)(OC)[C@@H](O)[C@H](C)O2)[C@H](C)[C@@H](O[C@@H]2O[C@H](C)C[C@H](N(C)C)[C@H]2O)[C@](C)(O)C[C@@H](C)C(=O)[C@H](C)[C@@H](O)[C@]1(C)O	ATCC 35820					MBC		>8 µg/mL
COc1c(O)cc2oc3cc(O)c(CCC(C)C)c(O)c3c(=O)c2c1CCC(C)C	8	MDR		resazurin		MIC		3.12 µg/mL
CC[C@H]1OC(=O)[C@H](C)[C@@H](O[C@H]2C[C@@](C)(OC)[C@@H](O)[C@H](C)O2)[C@H](C)[C@@H](O[C@@H]2O[C@H](C)C[C@H](N(C)C)[C@H]2O)[C@](C)(O)C[C@@H](C)CN(C)[C@H](C)[C@@H](O)[C@]1(C)O	DRUG-SUS					MIC50		>8 µg/mL
O=C1NC(Nc2ccc(Cl)cc2)=N/C1=C\c1c(Cl)cccc1Cl	H37Rv					inhibition	12.5 µg/mL	17%
NC1CCN(c2c(F)cc3c(=O)c(C(=O)O)cn(C4CC4)c3c2Cl)C1	H37Rv		Macrophages		inside macrophages	inhibition	0.1 µg/mL	70%
CCC(C)Nc1c([N+](=O)[O-])cc(C(F)(F)F)cc1[N+](=O)[O-]	H37Rv			BACTEC		inhibition	12.5 µg/mL	11%
COc1c(OCCO)cc2oc3cc(OCCO)c(CCC(C)C)c(O)c3c(=O)c2c1CCC(C)C	H37Ra			resazurin		MIC		3.12 µg/mL
Cc1ccc(NC(=O)c2cccc3nc4ccccc4nc23)cc1	H37Rv 27294					MIC		0.78 µg/mL
NC(=S)N/N=C(\C(=O)Nc1ccc(Cl)c(Cl)c1)C1=NN(c2ccccc2)C(c2cccc([N+](=O)[O-])c2)CC1=O	H37Rv			BACTEC		MIC bound		>12.5 µg/mL
O=C(O)C(=O)O.OC(CNCCc1ccccc1)CN1c2ccccc2Sc2ccccc21	XDR-164			resazurin		MIC		32 µg/mL
COC(=O)Nc1nc2ccc(CCC(=O)c3c(C)oc(C)c3-c3ccc(NC(C)=O)cc3)cc2[nH]1	H37Rv			BACTEC		inhibition	12.5 µg/mL	36%
Nc1ccc(C(=O)O)c(O)c1	H37Rv					Median MIC		0.5 µg/mL
CCCCCCCCC=CCCCCCCCCNCc1ccc(F)cc1	Sensitive strains					MIC		12.5 µg/mL
O=C(O)COc1ccc(C(=O)/C(SS/C(C(=O)c2ccc(OCC(=O)O)c(Cl)c2Cl)=C2\C=C(c3ccc(Cl)cc3)SS2)=C2/C=C(c3ccc(Cl)cc3)SS2)c(Cl)c1Cl	H37Rv			BACTEC		MIC bound		>12.5 µg/mL
CC1COc2c(N3CCN(C)CC3)c(F)cc3c(=O)c(C(=O)O)cn1c23	SMI 19			BACTEC		MIC		0.5 µg/mL
CCCOc1cc2oc3cc(O)c(CCC(C)C)c(O)c3c(=O)c2c(CCC(C)C)c1OC	M16	MDR		resazurin		MIC		6.25 µg/mL
NC(=O)c1cnccn1	M4809/NIACIN+					MIC		>2048 µg/mL
CCCCCCCCNC(CCO)c1cccc(Cl)c1	H37Ra					MIC		<25 µg/mL
C[C@@H]1CN(c2c(F)c(N)c3c(=O)c(C(=O)O)cn(C4CC4)c3c2F)C[C@H](C)N1	ATCC 35830					MBC		0.03 µg/mL
CCCCN(CCCC)CCNc1ccc(C)c2sc3ccc([N+](=O)[O-])cc3c(=O)c12	H37Rv			BACTEC		MIC bound		>12.5 µg/mL
NNC(=O)c1ccncc1	MDR-843			resazurin		MIC		2 µg/mL
CO[C@H]1/C=C/O[C@@]2(C)Oc3c(C)c(O)c4c(O)c(c(/C=N/N5CCN(C)CC5)c(O)c4c3C2=O)NC(=O)/C(C)=C\C=C\[C@H](C)[C@H](O)[C@@H](C)[C@@H](O)[C@@H](C)[C@H](OC(C)=O)[C@@H]1C	M16	MDR		resazurin		MIC		>2 µg/mL
CC(=O)c1ccc(N2CCC(C(=O)c3ccc4c(c3)OCO4)CC2)cc1	Wild type without biotin			turbidity		MIC50		>50 µM
Cc1nc(N)c2ncn([C@@H]3O[C@H](CO)[C@@H](O)[C@H]3O)c2n1	ATCC 35837 (ethambutol-resistant)					MIC		<1.56 µg/mL
COc1cc2oc3cc(O)c(CCC(C)C)c(O)c3c(=O)c2c(CCC(C)C)c1OC	M22			resazurin		MIC		1.56 µg/mL
COc1ccc(NC(=O)c2cccc3nc4ccccc4nc23)cc1	H37Rv 27294					MIC		0.78 µg/mL
O=C1NC(=Nc2ccc(Cl)cc2Cl)N/C1=C\c1ccc(Cl)cc1Cl	H37Rv					MIC		<12.5 µg/mL
NNC(=O)c1ccncc1	PR1233					MIC		>20 µg/mL
CCCCCCCCCCCCNC(=S)C(=S)NCCCCCCCCCCCC	H37Rv			resazurin		inhibition	6.25 µg/mL	60%
CCCCCCCCNCc1ccccc1[N+](=O)[O-]	H37Ra					MIC		<25 µg/mL
NC1CCN(c2nc3c(cc2F)c(=O)c(C(=O)O)cn3-c2ccc(F)cc2F)C1	ATCC 35830					MBC		>8 µg/mL
CCOc1cc(/C=N/NC(=O)c2ccc(F)cc2)ccc1O	H37Rv					inhibition	6.25 µg/mL	7%
NC(N)=N/C(N)=N/c1cnc([N+](=O)[O-])s1	H37Rv			resazurin		inhibition	6.25 µg/mL	8%
COc1cc2oc3cc(OC(C)=O)c(CCC(C)C)c(O)c3c(=O)c2c(CCC(C)C)c1C(C)=O	H37Ra			resazurin		MIC		100 µg/mL
O=C(N=Nc1c(O)[nH]c2ccccc12)c1ccc(F)cc1	H37Rv					EC50		>6.25 µg/mL
CCCCCCCCCCCCNC(CC(=O)OCC)c1cccc([N+](=O)[O-])c1	Sensitive strains					MIC		6.25 µg/mL
CCCC(=O)N1CCN(c2ccc(C(C)=O)cc2)CC1	BioA underexpression strain			turbidity		MIC50		>50 µM
CCOC(=O)CC(NCc1ccccc1)c1cccc([N+](=O)[O-])c1	H37Ra					MIC		>25 µg/mL
O=C(N/N=C/c1ccc([N+](=O)[O-])cc1)c1ccc(F)cc1	H37Rv					inhibition	6.25 µg/mL	25%
CCCCCCCCCCCCNCc1ccc(Cl)cc1	H37Ra					MIC		<25 µg/mL
O=C1C/C(=C\c2ccc(Cl)cc2Cl)C(=O)N1	H37Rv			BACTEC		MIC bound		>12.5 µg/mL
O=C(Nc1ccccc1C(F)(F)F)c1cccc2nc3ccccc3nc12	H37Rv 27294					MIC		0.39 µg/mL
O=C(CNC(=O)c1ccccc1)N/N=C/c1ccc2c(c1)OCO2	H37Rv			BACTEC		inhibition	12.5 µg/mL	15%
CC(=O)c1c(OCc2ccccc2)cc2oc3cc(OCc4ccccc4)c(CCC(C)C)c(O)c3c(=O)c2c1CCC(C)C	H37Ra			resazurin		MIC		12.5 µg/mL
Nc1c(Cl)c(Cl)nc(C(=O)O)c1Cl	H37Rv			resazurin		inhibition	6.25 µg/mL	39%
CCCCCCCCCCCCNC(CC(=O)OCC)c1ccc([N+](=O)[O-])cc1	Sensitive strains					MIC		25 µg/mL
O=C(N/N=C/c1cccs1)c1ccccc1	H37Rv					EC50		>6.25 µg/mL
C=C(C)C1CCc2c(C)cc(O)c(C(=O)O)c2C1	H37Rv			BACTEC		MIC bound		>12.5 µg/mL
CO[C@H]1/C=C/O[C@@]2(C)Oc3c(C)c(O)c4c(O)c(c5c(c4c3C2=O)NC2(CCN(CC(C)C)CC2)N=5)=NC(=O)/C(C)=C\C=C\[C@H](C)[C@H](O)[C@@H](C)[C@@H](O)[C@@H](C)[C@H](OC(C)=O)[C@@H]1C	H37Ra					Mean MIC		≤0.003 µg/mL
CC(=O)O.CC(O)C(N)C(=O)NC(Cc1ccc(O)cc1)C(=O)NC(CO)C(=O)NC(CCCCN)C(=O)O	H37Rv			BACTEC		MIC bound		>12.8 µg/mL
O=C1NC(=Nc2ccccc2Cl)N/C1=C\c1c(Cl)cccc1Cl	H37Rv					MIC		>6.25 µg/mL
CCCCCCCCNC(CC(=O)OCC)c1ccccc1	Sensitive strains					MIC		25 µg/mL
COC(=O)C1=C(C(=O)OC)P2(c3ccccc3)(c3ccccc3)S/C(=N\P(C)(C)=S)N2C1(c1ccccc1)c1ccccc1	H37Rv			BACTEC		MIC		≥12.5 µg/mL
NC[C@H]1O[C@H](O[C@H]2[C@H](O)[C@@H](O[C@H]3O[C@H](CO)[C@@H](O)[C@H](N)[C@H]3O)[C@H](N)C[C@@H]2N)[C@H](O)[C@@H](O)[C@@H]1O	H37Ra					Mean MIC		3.13 µg/mL
NNC(=O)c1n[nH]nc1N	H37Rv			BACTEC		MIC bound		>12.5 µg/mL
CC(=O)c1ccc(N2CCN(C(=O)c3cscn3)CC2)cc1	BioA overexpression strain			turbidity		MIC50		>50 µM
O=C(N/C(=C\c1ccc(/C=C(\NC(=O)c2ccccc2)c2nc3cc([N+](=O)[O-])ccc3[nH]2)cc1)c1nc2cc([N+](=O)[O-])ccc2[nH]1)c1ccccc1	H37Rv			resazurin		inhibition	6.25 µg/mL	29%
CCOC(=O)CC(c1cccc([N+](=O)[O-])c1)N1CCCC1	Sensitive strains					MIC		25 µg/mL
O=c1c2cc(O)ccc2oc2c(CO)ccc(NCCN3CCCC3)c12	H37Rv			BACTEC		MIC bound		>12.5 µg/mL
CCN(CC)C(=O)C1CCCN(c2cc3c(cc2[N+](=O)[O-])c(=O)c(C(=O)O)cn3C2CC2)C1	ATCC35801					MIC		0.09 µM
O=C(C[n+]1ccccc1)N/N=C/c1ccc([N+](=O)[O-])s1.[Cl-]	H37Rv			BACTEC		MIC bound		>12.5 µg/mL
C=CCOc1cc2oc3cc(O)c(CCC(C)C)c(O)c3c(=O)c2c(CCC(C)C)c1OC	M5			resazurin		MIC		3.12 µg/mL

A second listing of 4 rows from above:

SMILES,strain,mutations,cell line,read by,setting,read-out,tested at,value
CCCCN(CCCC)CCNc1ccc(C)c2sc3ccc([N+](=O)[O-])cc3c(=O)c12,H37Rv,,,BACTEC,,MIC bound,,>12.5 µg/mL
O=C1CCc2cc(N3CCN(C(=O)c4ccc5c(c4)OCO5)CC3)ccc21,BioA underexpression strain,,,turbidity,,MIC90,,0.8 µM
CCCCCCCCCCCCNC(=S)C(=S)NCCCCCCCCCCCC,H37Rv,,,resazurin,,inhibition,6.25 µg/mL,60%
C[C@@H]1CN(c2c(F)c(N)c3c(=O)c(C(=O)O)cn(C4CC4)c3c2F)C[C@H](C)N1,ATCC 35830,,,,,MBC,,0.03 µg/mL